Compound potency records, mixed from different reports. Data source: NIAID ChemDB in PubChem.

All rows: cytotoxicity tests; endpoint: CC50

CCn: concentration that lowers growth or viability of the cells by n%.

{"SMILES": "Nc1ccn(C[C@@H](CO)OCP(=O)(O)O)c(=O)n1", "cells": "MA-104", "result": "2330 µM"}
{"SMILES": "COc1ccc2c(c1)[nH]c1cc(OC)c(C(=O)O)cc12", "cells": "1A2", "method": "tetrazolium", "result": "54.1 µM"}
{"SMILES": "Cc1ccc(Nc2ncnc3c2cnn3Cc2ccccc2)c(C)c1", "cells": "HUH 9B", "result": "46 µM"}
{"SMILES": "CN(C(=O)[C@H](Cc1ccccc1)NC(=O)c1c[nH]c(=O)[nH]c1=O)c1ccccc1", "cells": "TZM-gfp", "method": "XTT", "result": ">50 µM"}
{"SMILES": "Fc1cccc(-c2cc3c(-c4ccnc(NC5CCCC5)n4)ccc(NC4CCCC4)n3n2)c1", "cells": "VERO 76", "result": ">40 µM"}
{"SMILES": "CCOc1ccc(Nc2ncnc3c2cnn3-c2ccccc2)cc1", "cells": "HUH 9B", "result": "50 µM"}
{"SMILES": "CC1CN(c2c(F)cc3c(=O)c(C(=O)O)cn4c3c2OC[C@@H]4C)CC(C)O1", "cells": "Mammalian Vero cells", "method": "MTT", "result": ">166 µM"}
{"SMILES": "c1ccc(-c2cc3c(-c4ccnc(NC5CCCC5)n4)ccc(NC4CCCC4)n3n2)cc1", "cells": "VERO 76", "result": ">40 µM"}
{"SMILES": "O=C(OCc1ccccc1)N1OCCC1n1cc(COCc2ccccc2)c(=O)[nH]c1=O", "cells": "MOLT-3", "method": "MTS", "result": ">1000 µM"}
{"SMILES": "C[C@H](NCC(=O)Nc1ccc(-c2csc(N)n2)cc1)c1ccccc1", "cells": "HS68", "result": ">30 µM"}
{"SMILES": "O=c1c(-c2ccccc2C(F)(F)F)c(O)c2cccnc2n1O", "cells": "HeLa", "result": "<100 µM"}
{"SMILES": "C[C@H]1COc2c(N3CCC4(CC3)OCCO4)c(F)c(N)c3c(=O)c(C(=O)O)cn1c23", "cells": "Mammalian Vero cells", "method": "MTT", "result": ">149 µM"}
{"SMILES": "Nc1nc(-c2ccc(NC(=O)CCNCC3CCCCC3)cc2)cs1", "cells": "HS68", "result": "<6 µM"}
{"SMILES": "COc1cccc(-c2cc3c(-c4ccnc(NC5CCCC5)n4)ccc(NC4CCCC4)n3n2)c1", "cells": "VERO 76", "result": ">40 µM"}
{"SMILES": "CN(C(=O)[C@H](Cc1ccccc1)NC(=O)CNC(=O)c1ccccc1)c1cccc(F)c1", "cells": "TZM-gfp", "method": "XTT", "result": ">50 µM"}
{"SMILES": "CCOC(=O)c1ccc2c(c1)CN(c1cc(=O)n(O)c3ncccc13)CC2", "cells": "HeLa", "result": "<100 µM"}
{"SMILES": "Nc1nc(-c2ccc(NC(=O)NCCCn3ccnc3)cc2)cs1", "cells": "HS68", "result": "<48 µM"}
{"SMILES": "FC(F)(F)c1cccc(-c2cc3c(-c4ccnc(NC5CCCC5)n4)ccc(NC4CCCC4)n3n2)c1", "cells": "VERO 76", "result": ">40 µM"}
{"SMILES": "O=C1N=C(N2CCOCC2)S/C1=C\\c1ccc(-c2ccc(C(=O)O)c(O)c2)o1", "cells": "Ramos", "method": "MTT", "result": "3.14 µM"}
{"SMILES": "Cc1ccnc2c1NC(=O)c1cccnc1N2C1CC1", "cells": "CEM-GFP", "method": "MTS", "result": "980 µM"}
{"SMILES": "CC1COc2c(N3CCN(C(=O)c4ccco4)CC3)c(F)c([N+](=O)[O-])c3c(=O)c(C(=O)O)cn1c23", "cells": "Mammalian Vero cells", "method": "MTT", "result": "64.25 µM"}
{"SMILES": "C=CCOCc1cn(C2CCON2C(=O)OCc2ccccc2)c(=O)[nH]c1=O", "cells": "CEM-GFP", "method": "MTS", "result": "747 µM"}
{"SMILES": "CCC(C)n1ncn(-c2ccc(N3CCN(c4ccc(OC[C@H]5CO[C@](Cn6cncn6)(c6ccc(Cl)cc6Cl)O5)cc4)CC3)cc2)c1=O", "cells": "293T", "method": "MTT", "result": ">400 µM"}
{"SMILES": "Cc1cn(CC(=O)N[C@@H](Cc2ccccc2)C(=O)N(C)c2cccc(C(F)(F)F)c2)c(=O)[nH]c1=O", "cells": "TZM-gfp", "method": "XTT", "result": ">50 µM"}
{"SMILES": "CN1C=CN(c2cccc(N3C=CN(C)C3)n2)C1.[Cl][Au].[Cl][Au]", "cells": "4T1", "method": "sulforhodamine / absorbance", "result": ">30 µM"}
{"SMILES": "C#CCOCc1cn(C2CCON2C(=O)OCc2ccccc2)c(=O)[nH]c1=O", "cells": "MOLT-3", "method": "MTS", "result": ">1000 µM"}
{"SMILES": "O=C1/C(=C/c2ccc(-c3cc(C(F)(F)F)ccc3Cl)o2)SC(=S)N1Cc1ccc(F)cc1", "cells": "Ramos", "method": "MTT", "result": "4.1 µM"}
{"SMILES": "CC1COc2c(N3CCN(C(=O)C4COc5ccccc5O4)CC3)c(F)c([N+](=O)[O-])c3c(=O)c(C(=O)O)cn1c23", "cells": "Mammalian Vero cells", "method": "MTT", "result": "113 µM"}
{"SMILES": "Cc1ccccc1-n1ncc2c(NCCc3c[nH]c4ccccc34)ncnc21", "cells": "HUH 9B", "result": "24 µM"}
{"SMILES": "Cc1cn(CC(=O)N[C@@H](C(=O)N(C)c2ccccc2)c2ccccc2)c(=O)[nH]c1=O", "cells": "TZM-gfp", "method": "XTT", "result": ">50 µM"}
{"SMILES": "Clc1cccc(-c2cc3c(-c4ccnc(NC5CCCC5)n4)ccc(NC4CCCC4)n3n2)c1", "cells": "VERO 76", "result": ">40 µM"}
{"SMILES": "CC1COc2c(N3CCc4ccccc4C3C(=O)NC(C)(C)C)c(F)c([N+](=O)[O-])c3c(=O)c(C(=O)O)cn1c23", "cells": "Mammalian Vero cells", "method": "MTT", "result": "116 µM"}
{"SMILES": "Cc1cn([C@H]2C[C@H](N=[N+]=[N-])[C@@H](CO)O2)c(=O)[nH]c1=O", "cells": "1A2", "method": "tetrazolium", "result": ">1 µM"}
{"SMILES": "O=C(OCc1ccccc1)N1OCCC1n1cc(COCc2cn(-c3ccc(F)cc3)nn2)c(=O)[nH]c1=O", "cells": "MOLT-3", "method": "MTS", "result": "579 µM"}
{"SMILES": "CC1COc2c(N3CCn4cc(C(=O)O)nc4C3)c(F)c(N)c3c(=O)c(C(=O)O)cn1c23", "cells": "Mammalian Vero cells", "method": "MTT", "result": ">141 µM"}
{"SMILES": "Nc1nc(-c2ccc(NC(=O)CNCCCc3ccccc3)cc2)cs1", "cells": "HS68", "result": ">14 µM"}
{"SMILES": "O=C(O)c1ccc(-c2ccc(/C=C3\\SC(=S)N(CCc4ccc(Cl)c(Cl)c4)C3=O)o2)cc1O", "cells": "Ramos", "method": "MTT", "result": ">100 µM"}
{"SMILES": "Nc1nc(-c2ccc(NC(=O)CN(CC3CCCCC3)S(=O)(=O)N3CCOCC3)cc2)cs1", "cells": "HS68", "result": ">12 µM"}
{"SMILES": "CC1COc2c(N3CCC4(CC3)OCCO4)c(F)c([N+](=O)[O-])c3c(=O)c(C(=O)O)cn1c23", "cells": "Mammalian Vero cells", "method": "MTT", "result": "139 µM"}
{"SMILES": "Cc1ccc(-n2ncc3c(NC(=O)Nc4ccc(Br)cc4)ncnc32)c(C)c1", "cells": "HUH 9B", "result": "36 µM"}
{"SMILES": "CS(=O)(=O)NCc1ccc(-c2cc(=O)n(O)c3ncccc23)cc1", "cells": "HeLa", "result": "<100 µM"}
{"SMILES": "Oc1ccc(-c2cc3c(-c4ccnc(NC5CCCC5)n4)ccc(NC4CCCC4)n3n2)cc1", "cells": "VERO 76", "result": ">50 µM"}
{"SMILES": "O=C(Nc1ccccc1)c1c(O)c2cccnc2n(O)c1=O", "cells": "HeLa", "result": "<100 µM"}
{"SMILES": "c1cc(-c2ccc(NC3CCCC3)n3nc(-c4ccc(OCC5CC5)cc4)cc23)nc(NC2CCCC2)n1", "cells": "VERO 76", "result": ">100 µM"}
{"SMILES": "CCc1cnc2c(c1)c(O)c(-c1ccccc1)c(=O)n2O", "cells": "HeLa", "result": "<100 µM"}
{"SMILES": "Cc1ccccc1CN(CC(=O)Nc1ccc(-c2csc(N)n2)cc1)C(=O)Cc1ccccn1", "cells": "HS68", "result": ">25 µM"}
{"SMILES": "Cc1ccc(-n2ncc3c(NC(=O)Nc4ccc(S(N)(=O)=O)cc4)ncnc32)c(C)c1", "cells": "HUH 9B", "result": "26 µM"}
{"SMILES": "Nc1nc(-c2ccc(NC(=O)NCCN(Cc3ccccc3)Cc3ccccc3)cc2)cs1", "cells": "HS68", "result": "<5 µM"}
{"SMILES": "O=c1cc(N2CCC[C@@H]2CF)c2cccnc2n1O", "cells": "HeLa", "result": "<100 µM"}
{"SMILES": "Nc1nc(-c2ccc(NC(=O)CCN(Cc3ccccc3)C(=O)OCc3ccccc3)cc2)cs1", "cells": "HS68", "result": "<8 µM"}
{"SMILES": "NCc1cccc(CNc2cc(=O)n(O)c3ncccc23)c1", "cells": "HeLa", "result": "<100 µM"}
{"SMILES": "c1ccc(Oc2ccc(-c3cc4c(-c5ccnc(NC6CCCC6)n5)ccc(NC5CCCC5)n4n3)cc2)cc1", "cells": "VERO 76", "result": ">40 µM"}
{"SMILES": "COc1ccc(Cl)cc1Nc1ncnc2c1cnn2-c1ccc(F)cc1F", "cells": "HUH 9B", "result": ">50 µM"}
{"SMILES": "CCOC(=O)c1c(O)c2c(-c3ccccc3)ccnc2n(O)c1=O", "cells": "HeLa", "result": "0.53 µM"}
{"SMILES": "CC1COc2c(N3CCn4cc(C(=O)O)nc4C3)c(F)cc3c(=O)c(C(=O)O)cn1c23", "cells": "Mammalian Vero cells", "method": "MTT", "result": ">145.9 µM"}

Repeating the first 5 entries:

SMILES	cells	method	result
Nc1ccn(C[C@@H](CO)OCP(=O)(O)O)c(=O)n1	MA-104		2330 µM
COc1ccc2c(c1)[nH]c1cc(OC)c(C(=O)O)cc12	1A2	tetrazolium	54.1 µM
Cc1ccc(Nc2ncnc3c2cnn3Cc2ccccc2)c(C)c1	HUH 9B		46 µM
CN(C(=O)[C@H](Cc1ccccc1)NC(=O)c1c[nH]c(=O)[nH]c1=O)c1ccccc1	TZM-gfp	XTT	>50 µM
Fc1cccc(-c2cc3c(-c4ccnc(NC5CCCC5)n4)ccc(NC4CCCC4)n3n2)c1	VERO 76		>40 µM

Rows are shuffled and stem from different studies. An empty or dashed field is not shown.